From US20030120073A1, “Alpha-ketocarboxylic acid based inhibitors of phosphoryl tyrosine phosphatases” (priority 2001, published 2003)

Chains of the proteins cited; added tags and fusions are not shown.
UniProt P15273, whole entry: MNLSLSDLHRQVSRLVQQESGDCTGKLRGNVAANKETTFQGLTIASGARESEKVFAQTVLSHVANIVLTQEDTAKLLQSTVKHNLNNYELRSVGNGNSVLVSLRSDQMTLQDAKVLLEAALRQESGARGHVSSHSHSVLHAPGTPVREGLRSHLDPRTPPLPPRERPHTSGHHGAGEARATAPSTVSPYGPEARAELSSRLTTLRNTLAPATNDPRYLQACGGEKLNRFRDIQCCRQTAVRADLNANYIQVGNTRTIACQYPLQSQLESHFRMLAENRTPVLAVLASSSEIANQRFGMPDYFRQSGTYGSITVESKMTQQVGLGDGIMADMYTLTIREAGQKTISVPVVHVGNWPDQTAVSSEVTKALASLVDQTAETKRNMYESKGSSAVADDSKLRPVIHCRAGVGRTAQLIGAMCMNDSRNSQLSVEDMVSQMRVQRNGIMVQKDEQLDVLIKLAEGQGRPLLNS

Target: Yersinia PTPase (Yersinia enterocolitica, UniProt P15273)
Test: Yersinia PTPase assay (p-NPP hydrolysis, UV at 420 nm)
Conditions: read-out: IC50 Yersinia PTPase; Table 2; average of two measurements; 2.5 mM p-NPP, pH 5.5, 10% DMSO
Description: Yersinia and LAR PTPase Assays: The phosphatase activities of the Yersinia and LAR PTPases (purchased from Calbiochem) were assayed using p-NPP as the substrate and the reaction progress was monitored by UV spectroscopy. Initial rates were determined by monitoring the hydrolysis of p-NPP at 420 nm, from 10 to 120 s after mixing. Assay solutions contained 2.5 mM substrate, 1 mM EDTA, 100 mM NaCl, 100 mM acetate at pH 5.5, and 10% DMSO. IC50 values were calculated using a Dixon analysis. Data analysis was performed with the commercial graphing package Grafit (Erithacus Software Ltd.).

With O=C(O)C(=O)c1ccc(OCc2ccc(COc3ccc(C(=O)C(=O)O)cc3)cc2)cc1 the IC50 was 700 nM.
